Pooled drug test results. Numbers come from NIAID ChemDB, via PubChem.

Common to all: tests in culture; organism: Aspergillus fumigatus; endpoint: zone

Blank or dashed fields: not listed here. Neighbouring rows are from separate reports. Zones are inhibition diameters on agar.

{"compound": "COC(=O)c1cc(=O)nc2sc3cc(C)ccc3n12", "read by": "agar diffusion", "dose": "5000 µg/mL", "value": "7 mm"}
{"compound": "C[C@H]1[C@H](O)[C@@H](C)/C=C/C=C/C=C/C=C/C=C/C=C/C=C/[C@H](O[C@@H]2O[C@H](C)[C@@H](O)[C@H](N)[C@@H]2O)C[C@@H]2O[C@](O)(C[C@@H](O)C[C@@H](O)CC[C@H](O)[C@@H](O)C[C@@H](O)CC(=O)O[C@H]1C)C[C@H](O)[C@H]2C(=O)O", "read by": "agar diffusion", "dose": "1 mg/disc", "value": "0 mm"}
{"compound": "Cc1ccc(-n2cc(-c3ccc([N+](=O)[O-])cc3)c(-c3ccnc4nncn34)n2)cc1", "read by": "agar diffusion / agar", "dose": "2.5 mg/mL", "value": "11 mm"}
{"compound": "Cc1ccc2c(c1)sc1nc(=O)cc(C(=O)NN)n12", "read by": "agar diffusion", "dose": "5000 µg/mL", "value": "18 mm"}
{"compound": "COc1ccccc1CN(CC(O)C[N+](C)(C)C)[C@@H]1[C@@H](O)[C@H](O[C@@H]2O[C@H](COCC(=O)O)[C@@H](O[C@@H]3C[C@H](COCC(=O)O)[C@@H](C)[C@H](O)[C@H]3N(Cc3ccccc3OC)CC(O)C[N+](C)(C)C)[C@H](O)[C@H]2N(Cc2ccccc2OC)CC(O)C[N+](C)(C)C)[C@@H](COCC(=O)O)O[C@H]1C", "read by": "agar diffusion", "strain or isolate": "RCMB 02568", "dose": "1 mg/mL", "value": "17.2 mm"}
{"compound": "COC(=O)N[C@H](C(=O)NN(CC[C@@]1(Cc2ccccc2)C(=O)N(C2c3ccccc3C[C@H]2O)C[C@@H]1O)Cc1ccc(Br)cc1)C(C)(C)C", "read by": "agar diffusion / agar", "strain or isolate": "RCMB 002003", "dose": "10 mg/mL", "value": "18.8 mm"}
{"compound": "C[C@@H]1[C@@H](COCC(=O)O)C[C@@H](O[C@H]2[C@H](O)[C@@H](N(Cc3cccc(Br)c3)CC(O)C[N+](C)(C)C)[C@H](O[C@H]3[C@H](O)[C@@H](N(Cc4cccc(Br)c4)CC(O)C[N+](C)(C)C)[C@H](C)O[C@@H]3COCC(=O)O)O[C@@H]2COCC(=O)O)[C@H](N(Cc2cccc(Br)c2)CC(O)C[N+](C)(C)C)[C@H]1O", "read by": "agar diffusion", "strain or isolate": "RCMB 02568", "dose": "1 mg/mL", "value": "22.7 mm"}
{"compound": "CCC(C)CCCCCCCCCCC(=O)N[C@H]1C[C@@H](O)[C@@H](S(=O)(=O)CC(=O)OC)NC(=O)C2[C@@H](O)[C@@H](C)CN2C(=O)C(CO)NC(=O)C([C@H](O)C(O)c2ccc(O)cc2)NC(=O)NC(=O)[C@@H]2C[C@@H](O)CN2C(=O)[C@H]([C@@H](C)O)NC1=O", "read by": "agar", "strain or isolate": "AF-1", "dose": "5 mg/mL", "value": "27 mm"}
{"compound": "COc1ccc(Cc2ccc(OC)c(-c3nnc4sc(-c5ccc(O)cc5)nn34)c2)cc1-c1nnc2sc(-c3ccc(O)cc3)nn12", "strain or isolate": "HIC 6094", "dose": "100 µg/disc", "value": "18 mm"}
{"compound": "COC(=O)N[C@H](C(=O)NN(CC[C@@]1(Cc2ccccc2)C(=O)N(C2c3ccccc3C[C@H]2O)C[C@@H]1O)Cc1ccc(-c2ccccn2)cc1)C(C)(C)C", "read by": "agar diffusion / agar", "strain or isolate": "RCMB 002003", "dose": "10 mg/mL", "value": "18.8 mm"}
{"compound": "CCOC(=O)C1=NN(c2ccccc2)C2=Nc3nccc(-c4nn(-c5ccccc5)cc4-c4ccc([N+](=O)[O-])cc4)c3C(=O)C12", "read by": "agar diffusion / agar", "dose": "5 mg/mL", "value": "19 mm"}
{"compound": "COC(=O)N[C@H](C(=O)NN(CC[C@@]1(Cc2ccccc2)C(=O)N(C2c3ccccc3C[C@H]2O)C[C@H]1O)Cc1ccc(Br)cc1)C(C)(C)C", "read by": "agar diffusion / agar", "strain or isolate": "RCMB 002003", "dose": "10 mg/mL", "value": "18.8 mm"}
{"compound": "COc1cccc(CN(CC(O)C[N+](C)(C)C)[C@@H]2[C@@H](O)[C@H](O[C@@H]3O[C@H](COCC(=O)O)[C@@H](O[C@@H]4C[C@H](COCC(=O)O)[C@@H](C)[C@H](O)[C@H]4N(Cc4cccc(OC)c4)CC(O)C[N+](C)(C)C)[C@H](O)[C@H]3N(Cc3cccc(OC)c3)CC(O)C[N+](C)(C)C)[C@@H](COCC(=O)O)O[C@H]2C)c1", "read by": "agar diffusion", "strain or isolate": "RCMB 02568", "dose": "1 mg/mL", "value": "13.6 mm"}
{"compound": "COc1ccc(Cc2ccc(OC)c(-c3nnc4sc(-c5ccccc5Cl)nn34)c2)cc1-c1nnc2sc(-c3ccccc3Cl)nn12", "strain or isolate": "HIC 6094", "dose": "100 µg/disc", "value": "10 mm"}
{"compound": "CCC(C)CCCCCCCCCCC(=O)N[C@H]1C[C@@H](O)[C@@H](SCC(=O)OC)NC(=O)C2[C@@H](O)[C@@H](C)CN2C(=O)C(CO)NC(=O)C([C@H](O)C(O)c2ccc(O)cc2)NC(=O)NC(=O)[C@@H]2C[C@@H](O)CN2C(=O)[C@H]([C@@H](C)O)NC1=O", "read by": "agar", "strain or isolate": "AF-1", "dose": "5 mg/mL", "value": "29 mm"}
{"compound": "C[C@H]1[C@H](O)[C@@H](C)/C=C/C=C/C=C/C=C/C=C/C=C/C=C/[C@H](O[C@@H]2O[C@H](C)[C@@H](O)[C@H](N)[C@@H]2O)C[C@@H]2O[C@](O)(C[C@@H](O)C[C@@H](O)CC[C@H](O)[C@@H](O)C[C@@H](O)CC(=O)O[C@H]1C)C[C@H](O)[C@H]2C(=O)O", "read by": "agar diffusion", "strain or isolate": "RCMB 02568", "dose": "1 mg/mL", "value": "23.7 mm"}
{"compound": "CCOC(=O)c1ccc(-c2nn(-c3ccccc3)cc2-c2ccc([N+](=O)[O-])cc2)nc1C", "read by": "agar diffusion / agar", "dose": "1.25 mg/mL", "value": "0 mm"}
{"compound": "COC(=O)N[C@H](C(=O)NN(CC[C@]1(Cc2ccccc2)C(=O)N(C2c3ccccc3C[C@H]2O)C[C@@H]1O)Cc1ccc(Br)cc1)C(C)(C)C", "read by": "agar diffusion / agar", "strain or isolate": "RCMB 002003", "dose": "10 mg/mL", "value": "18.8 mm"}
{"compound": "CCC(C)CCCCCCCCCCC(=O)N[C@H]1C[C@@H](O)[C@@H](N=[N+]=[N-])NC(=O)C2[C@@H](O)[C@@H](C)CN2C(=O)C(CO)NC(=O)C([C@H](O)C(N=[N+]=[N-])c2ccc(O)cc2)NC(=O)NC(=O)[C@@H]2C[C@@H](O)CN2C(=O)[C@H]([C@@H](C)O)NC1=O", "read by": "agar", "strain or isolate": "AF-1", "dose": "1 mg/mL", "value": "17 mm"}
{"compound": "COc1ccc(Cc2ccc(OC)c(-c3nnc4sc(-c5ccc([N+](=O)[O-])cc5)nn34)c2)cc1-c1nnc2sc(-c3ccc([N+](=O)[O-])cc3)nn12", "strain or isolate": "HIC 6094", "dose": "100 µg/disc", "value": "25 mm"}
{"compound": "CCC(C)CCCCCCCCCCC(=O)N[C@H]1C[C@@H](O)[C@@H]([n+]2cc[nH]c2)NC(=O)C2[C@@H](O)[C@@H](C)CN2C(=O)C(CO)NC(=O)C([C@H](O)C(O)c2ccc(O)cc2)NC(=O)NC(=O)[C@@H]2C[C@@H](O)CN2C(=O)[C@H]([C@@H](C)O)NC1=O", "read by": "agar", "strain or isolate": "AF-1", "dose": "1 mg/mL", "value": "20 mm"}
{"compound": "C[C@@H]1[C@@H](COCC(=O)O)C[C@@H](O[C@H]2[C@H](O)[C@@H](N(Cc3ccc(Br)cc3)CC(O)C[N+](C)(C)C)[C@H](O[C@H]3[C@H](O)[C@@H](N(Cc4ccc(Br)cc4)CC(O)C[N+](C)(C)C)[C@H](C)O[C@@H]3COCC(=O)O)O[C@@H]2COCC(=O)O)[C@H](N(Cc2ccc(Br)cc2)CC(O)C[N+](C)(C)C)[C@H]1O", "read by": "agar diffusion", "strain or isolate": "RCMB 02568", "dose": "1 mg/mL", "value": "18.6 mm"}
{"compound": "COc1ccc(Cc2ccc(OC)c(-c3nnc4sc(-c5ccccc5)nn34)c2)cc1-c1nnc2sc(-c3ccccc3)nn12", "strain or isolate": "HIC 6094", "dose": "100 µg/disc", "value": "12 mm"}
{"compound": "C[C@@H]1[C@@H](COCC(=O)O)C[C@@H](O[C@H]2[C@H](O)[C@@H](N(Cc3ccc(N(C)C)cc3)CC(O)C[N+](C)(C)C)[C@H](O[C@H]3[C@H](O)[C@@H](N(Cc4ccc(N(C)C)cc4)CC(O)C[N+](C)(C)C)[C@H](C)O[C@@H]3COCC(=O)O)O[C@@H]2COCC(=O)O)[C@H](N(Cc2ccc(N(C)C)cc2)CC(O)C[N+](C)(C)C)[C@H]1O", "read by": "agar diffusion", "strain or isolate": "RCMB 02568", "dose": "1 mg/mL", "value": "21.2 mm"}
{"compound": "COc1ccc(Cc2ccc(OC)c(-c3nnc4sc(-c5cccc([N+](=O)[O-])c5)nn34)c2)cc1-c1nnc2sc(-c3cccc([N+](=O)[O-])c3)nn12", "strain or isolate": "HIC 6094", "dose": "100 µg/disc", "value": "16 mm"}
{"compound": "COC(=O)N[C@H](C(=O)NN(CC[C@@]1(Cc2ccccc2)C(=O)N(C2c3ccccc3C[C@H]2O)C[C@@H]1O)Cc1ccc(-c2ccncc2)cc1)C(C)(C)C", "read by": "agar diffusion / agar", "strain or isolate": "RCMB 002003", "dose": "10 mg/mL", "value": "18.8 mm"}
{"compound": "CCC(C)CCCCCCCCCCC(=O)N[C@H]1C[C@@H](O)[C@@H](O)NC(=O)C2[C@@H](O)[C@@H](C)CN2C(=O)C(CO)NC(=O)C([C@H](O)C(O)c2ccc(O)cc2)NC(=O)NC(=O)[C@@H]2C[C@@H](O)CN2C(=O)[C@H]([C@@H](C)O)NC1=O", "read by": "agar", "strain or isolate": "AF-1", "dose": "0.1 mg/mL", "value": "24 mm"}
{"compound": "CC(=O)c1ccc(-c2nn(-c3ccc(C)cc3)cc2-c2ccc([N+](=O)[O-])cc2)nc1C", "read by": "agar diffusion / agar", "dose": "2.5 mg/mL", "value": "0 mm"}
{"compound": "CCC(C)CCCCCCCCCCC(=O)N[C@H]1C[C@@H](O)[C@@H](SCC(=O)OC)NC(=O)C2[C@@H](O)[C@@H](C)CN2C(=O)C(CO)NC(=O)C([C@H](O)C(SCC(=O)OC)c2ccc(O)cc2)NC(=O)NC(=O)[C@@H]2C[C@@H](O)CN2C(=O)[C@H]([C@@H](C)O)NC1=O", "read by": "agar", "strain or isolate": "AF-1", "dose": "5 mg/mL", "value": "26 mm"}
{"compound": "Cc1ccc(-n2cc(-c3ccc([N+](=O)[O-])cc3)c(-c3ccn[nH]3)n2)cc1", "read by": "agar diffusion / agar", "dose": "1.25 mg/mL", "value": "4 mm"}

3 of the rows above, restated:

compound | read by | strain or isolate | dose | value
CCC(C)CCCCCCCCCCC(=O)N[C@H]1C[C@@H](O)[C@@H](S(=O)(=O)CC(=O)OC)NC(=O)C2[C@@H](O)[C@@H](C)CN2C(=O)C(CO)NC(=O)C([C@H](O)C(O)c2ccc(O)cc2)NC(=O)NC(=O)[C@@H]2C[C@@H](O)CN2C(=O)[C@H]([C@@H](C)O)NC1=O | agar | AF-1 | 5 mg/mL | 27 mm
COc1ccc(Cc2ccc(OC)c(-c3nnc4sc(-c5cccc([N+](=O)[O-])c5)nn34)c2)cc1-c1nnc2sc(-c3cccc([N+](=O)[O-])c3)nn12 | - | HIC 6094 | 100 µg/disc | 16 mm
CCC(C)CCCCCCCCCCC(=O)N[C@H]1C[C@@H](O)[C@@H](SCC(=O)OC)NC(=O)C2[C@@H](O)[C@@H](C)CN2C(=O)C(CO)NC(=O)C([C@H](O)C(O)c2ccc(O)cc2)NC(=O)NC(=O)[C@@H]2C[C@@H](O)CN2C(=O)[C@H]([C@@H](C)O)NC1=O | agar | AF-1 | 5 mg/mL | 29 mm